Anti-infective test results gathered from many reports (values: NIAID ChemDB through PubChem).

All rows: whole-cell or culture tests; species: Mycobacterium smegmatis

ECn is the concentration giving n% inhibition of infection, replication or growth. Lines come from different laboratories, so protocols vary. An empty or dashed field is not shown. Two numbers with a dash give a range or band. MIC50, MIC90 and the like: level of inhibition, or share of isolates inhibited.

| compound | method | strain or isolate | changes | endpoint | setting | value |
|---|---|---|---|---|---|---|
| O=C(Nc1ccc(S(=O)(=O)Nc2nccs2)cc1)c1cc(-c2ccncc2)nc2ccccc12 | turbidity |  |  | MIC80 |  | 100 µM |
| CCOC(=O)NC(=O)c1ccsc1NC(=O)c1nc2ccccc2s1 | turbidity |  |  | MIC99 | biofilm | 0.03 µg/mL |
| Cc1[nH]c(-c2ccc(-c3ccc(Cl)c(OC(F)(F)F)c3)o2)nc1-c1ccc(F)cc1 | broth dilution / turbidity |  |  | MIC100 |  | 20–50 µg/mL |
| NCCCNCc1ccc(Nc2ccn(CCOCCN3CCC(N)CC3)c(=O)n2)nc1 | turbidity |  |  | MIC |  | 32–128 µg/mL |
| Cc1ccc(NC(=O)c2cc(-c3ccco3)nc3ccccc23)cc1S(=O)(=O)N1CCOCC1 | turbidity |  |  | MIC80 |  | >100 µM |
| CCCN1C2CCC1CC1(C2)N=C2C(=C3NC(=O)/C(C)=C\C=C\[C@H](C)[C@H](O)[C@@H](C)[C@@H](O)[C@@H](C)[C@H](OC(C)=O)[C@H](C)[C@@H](OC)/C=C/O[C@@]4(C)OC5=C(C)C(O)C(C3=O)C2=C5C4=O)N1 | luminescence |  |  | MIC90 |  | 290 µg/mL |
| COc1ccc(NC(=O)c2cc(-c3ccco3)nc3ccccc23)cc1S(=O)(=O)N1CCOCC1 | turbidity |  |  | MIC80 |  | >100 µM |
| Cc1[nH]c(-c2ccc(-c3ccc(C(F)(F)F)cc3)s2)nc1-c1ccccc1 | broth dilution / turbidity |  |  | MIC100 |  | 20–50 µg/mL |
| COc1ccc(-c2cc(C(=O)Nc3ccc(S(=O)(=O)Nc4onc(C)c4C)cc3)c3ccccc3n2)cc1 | turbidity |  |  | MIC80 |  | >100 µM |
| CCOC(=O)c1c(-c2ccccc2)c2ccc(Cl)cc2oc1=O | resazurin | mc2155 |  | MIC90 |  | >100 µg/mL |
| O=C(Nc1cccc(S(=O)(=O)NC2=NCCC2)c1)c1cc(-c2ccco2)nc2ccccc12 | turbidity |  |  | MIC80 |  | >100 µM |
| CC(=O)NC1Cc2cccc3c2n(c(=O)n3C/C=C\Cn2cc(C)c(=O)[nH]c2=O)C1 | resazurin / absorbance | mc2155 |  | EC50 |  | >160 µg/mL |
| CCCCCCSCCCCCCCCCCC#CC(=O)O |  | mc2651 |  | MIC99 |  | 153.2 µM |
| Cc1cn(C/C=C\Cn2c(=O)n3c4c(cccc42)CCC3)c(=O)[nH]c1=O | resazurin / absorbance | mc2155 |  | EC50 |  | >160 µg/mL |
| O=C(Nc1ccc(S(=O)(=O)Nc2nccs2)cc1)c1cc(-c2ccccc2)nc2ccccc12 | turbidity |  |  | MIC80 |  | 40–80 µM |
| Cc1[nH]c(-c2ccc(-c3ccc(Cl)cc3Cl)o2)nc1-c1ccccc1 | broth dilution / turbidity |  |  | MIC100 |  | 11–20 µg/mL |
| NC1CCN(CCCCn2ccc(Nc3ccc(CNC(=O)[C@@H](N)CO)cn3)nc2=O)CC1 | turbidity |  |  | MIC |  | 8–32 µg/mL |
| CO[C@H]1/C=C/O[C@@]2(C)Oc3c(C)c(O)c4c(O)c(c5c(c4c3C2=O)NC2(CC3CCC(C2)N3C)N=5)=NC(=O)/C(C)=C\C=C\[C@H](C)[C@H](O)[C@@H](C)[C@@H](O)[C@@H](C)[C@H](OC(C)=O)[C@@H]1C | luminescence |  |  | MIC90 |  | 300 µg/mL |
| Cc1ccccc1-c1cnc(-c2ccc(-c3ccccc3C(F)(F)F)o2)[nH]1 | broth dilution / turbidity |  |  | MIC100 |  | 11–20 µg/mL |
| NC1CCN(CCCCn2ccc(Nc3ccc(COCCCNCC4CC4)cn3)nc2=O)CC1 | turbidity |  |  | MIC |  | 32–128 µg/mL |
| CCCCCCCCC#CCCCCCCC#CC(=O)O |  | mc2155 |  | MIC99 |  | 68.9 µM |
| CC1COc2c(N3CCN(Cc4ccc5c(c4)OCO5)CC3)c(F)c([N+](=O)[O-])c3c(=O)c(C(=O)O)cn1c23 | agar |  |  | MIC99 |  | 1.48 µM |
| COc1ccc(C2=CSC(NC(=O)c3cccc(NS(=O)(=O)c4ccc(C)cc4)c3)N2)cc1 | turbidity |  |  | MIC80 |  | >100 µM |
| CC1COc2c(N3CCN(C(c4ccccc4)c4ccc(Cl)cc4)CC3)c(F)c([N+](=O)[O-])c3c(=O)c(C(=O)O)cn1c23 | agar |  |  | MIC99 |  | 0.66 µM |
| CCCNCCCOCc1ccc(Nc2ccn(CCCCN3CCC(N)CC3)c(=O)n2)nc1 | turbidity |  |  | MIC |  | 32–128 µg/mL |
| O=c1[nH]c(=O)n(C/C=C\CN2c3cccc4c3N(CCC4)S2(=O)=O)cc1Br | resazurin / absorbance | mc2155 |  | EC50 |  | >160 µg/mL |
| Cc1[nH]c(-c2ccc(-c3ccc(Cl)cc3)s2)nc1-c1ccccc1 | broth dilution / turbidity |  |  | MIC100 |  | 11–20 µg/mL |
| CO[C@H]1/C=C/O[C@@]2(C)Oc3c(C)c(O)c4c(O)c(c5c(c4c3C2=O)NC2(CCN(CC(C)C)CC2)N=5)=NC(=O)/C(C)=C\C=C\[C@H](C)[C@H](O)[C@@H](C)[C@@H](O)[C@@H](C)[C@H](OC(C)=O)[C@@H]1C | luminescence |  |  | MIC90 |  | 240 µg/mL |
| Cc1ccc(-c2cc(C(=O)Nc3ccc(S(=O)(=O)Nc4nccs4)cc3)c3ccccc3n2)c(C)c1 | turbidity |  |  | MIC80 |  | >100 µM |
| c1ccc(CSc2nnc3c4ccccc4c4ccccc4c3n2)cc1 |  | mc2155 |  | MIC99 |  | 150 µg/mL |
| COc1c(N2C[C@@H]3CCCN[C@@H]3C2)c(F)cc2c(=O)[nH]c(=O)n(C3CC3)c12 |  | D95Y mutant |  | MIC99 |  | 400 µg/mL |
| CCCCCCCCCCCCSCC#CC(=O)O |  | mc22389 |  | MIC99 |  | 92.5 µM |
| Cc1ccc([N+](=O)[O-])cc1NC(=O)Nc1cccc(Cl)c1 | broth dilution / turbidity |  |  | MIC90 |  | >40 µg/mL |
| NCCCNCc1ccnc(Nc2ccn(CCCCN3CCC(N)CC3)c(=O)n2)c1 | turbidity |  |  | MIC |  | <8 µg/mL |
| C=C1C2CCC(CO)[C@@]23CC[C@H](C3)C1(C)C | agar diffusion |  | MDR quinolone-resistant | MIC |  | 25 µg/mL |
| CCCCCCCCCCCCCC#CC(=O)N(N)C(=O)c1ccncc1 |  | mc2155 |  | MIC99 |  | >200 µM |
| NCCCNC(=O)c1ccnc(Nc2ccn(CCCCN3CCC(N)CC3)c(=O)n2)c1 | turbidity |  |  | MIC |  | <8 µg/mL |
| CCC1CN(c2c(F)cc3c(=O)n(N)c(=O)n(C4CC4)c3c2OC)CCN1 |  | D95Y mutant |  | MIC99 |  | 10 µg/mL |
| CC(C)[C@H](NC(=O)OCc1ccccc1)C(=O)Oc1ccc(Cl)cc1C(=O)Nc1ccc([N+](=O)[O-])cc1 | broth dilution | ATCC 700084 |  | MIC100 |  | 30.42 µM |
| CCc1cc(C(N)=S)ccn1 |  | MC^2 799 |  | MIC |  | 30 µg/mL |
| O=C(Nc1ccc(S(=O)(=O)NC2=NCCC2)cc1)c1cc(-c2ccco2)nc2ccccc12 | turbidity |  |  | MIC80 |  | >100 µM |
| O=C(Nc1ccc2c(c1)OCO2)c1cc2cccc([N+](=O)[O-])c2[nH]1 | PCR |  |  | EC50 |  | 56.7 µM |
| CO[C@H]1/C=C/O[C@@]2(C)Oc3c(C)c(O)c4c(O)c(c5c(c4c3C2=O)N[C@]2(CCCN(C)CC2)N=5)=NC(=O)/C(C)=C\C=C\[C@H](C)[C@H](O)[C@@H](C)[C@@H](O)[C@@H](C)[C@H](OC(C)=O)[C@@H]1C | luminescence |  |  | MIC90 |  | 540 µg/mL |
| COc1c(N2CC[C@H](N)C2)c(F)cc2c(=O)[nH]c(=O)n(C3CC3)c12 |  | D95Y mutant |  | MIC99 |  | 200 µg/mL |
| CCCCCCCCCCCCCC#CC(=O)OCC(O)CO |  | mc2155 |  | MIC99 |  | 6.1 µM |
| NCCCNC(=O)c1ccc(Nc2ccn(CCCCN3CCC(N)CC3)c(=O)n2)nc1 | turbidity |  |  | MIC |  | <8 µg/mL |
| COc1cc2c(cc1OC)CN(c1c(F)c([N+](=O)[O-])c3c(=O)c(C(=O)O)cn4c3c1OCC4C)CC2 | agar |  |  | MIC99 |  | 12.51 µM |
| CCc1nc(NCCCc2ccccc2)c2cc(C)sc2n1 | resazurin | mc2155 |  | EC50 |  | 1.9 µM |
| CCC1CN(c2c(F)cc3c(=O)c(C(=O)O)cn(C4CC4)c3c2OC)CCN1 |  | A91V mutant |  | MIC99 |  | 0.25 µg/mL |
| O=C(N[C@H](C(=O)Oc1ccc(Cl)cc1C(=O)Nc1ccc(Br)cc1)C1CCCCC1)OCc1ccccc1 | broth dilution | ATCC 700084 |  | MIC100 |  | 26.06 µM |

Again, the opening 5 rows:

compound,method,strain or isolate,changes,endpoint,setting,value
O=C(Nc1ccc(S(=O)(=O)Nc2nccs2)cc1)c1cc(-c2ccncc2)nc2ccccc12,turbidity,,,MIC80,,100 µM
CCOC(=O)NC(=O)c1ccsc1NC(=O)c1nc2ccccc2s1,turbidity,,,MIC99,biofilm,0.03 µg/mL
Cc1[nH]c(-c2ccc(-c3ccc(Cl)c(OC(F)(F)F)c3)o2)nc1-c1ccc(F)cc1,broth dilution / turbidity,,,MIC100,,20–50 µg/mL
NCCCNCc1ccc(Nc2ccn(CCOCCN3CCC(N)CC3)c(=O)n2)nc1,turbidity,,,MIC,,32–128 µg/mL
Cc1ccc(NC(=O)c2cc(-c3ccco3)nc3ccccc23)cc1S(=O)(=O)N1CCOCC1,turbidity,,,MIC80,,>100 µM